Experimental data: patent publication US20240117011A1 (US Dept. of Health and Human Services, published 2024)

Target: full-length spike B.1.617.2 (SARS-CoV-2, UniProt P0DTC2 13-1273)
Test: flow cytometry, cell-surface spike

B1: A19-46.1 (antibody, V domains shown)
VH: QVQLVESGGGVVQPGRSLRLSCAASGFTLSSYGMHWVRQAPGKGLEWVAVISYDGSNKYYVDSVKGRFTISRDNSKNTLYLQMNSLRAEDTAVYYCARGWAYWELLPDYYYGMDVWGQGTTVTVSS
VL: QTVVTQEPSFSVSPGGTVTLTCGLSSGSVSTAYFPSWYQQTPGQAPRTLIYGTNTRSSGVPDRFSGSILGNKAALTITGAQADDESDYYCVLYMGRGIVVFGGGTKLTVL
- binding, percent of D614G: 0%
